Data on one molecule can be found in US8221975B2, “Method for detection of microorganism” (Morinaga Milk Industry Co., Ltd., priority 2007, dated 2012).

Series [1] has as its system Salmonella enteritidis IIP 604. The series can be described thus: invA real-time PCR (378 bp) of EMA-treated Salmonella, Ct value. It counts as cell-based.
In series [2] the test system is Enterobacter sakazakii ATCC 6538P. The series can be described thus: ompA real-time PCR (469 bp) of EMA-treated Enterobacter sakazakii, Ct value. The conditions noted are these: single-step treatment with 25 μg/ml EMA. It counts as cell-based.
Setting [3] is: single-step treatment with 25 μg/ml EMA.
Setting [4] is: single-step treatment with 100 μg/ml EMA.

Regarding `CC[n+]1c(-c2ccccc2)c2cc(N=[N+]=[N-])ccc2c2ccc(N)cc21` [EMA, ethidium monoazide], the “detection limit of live cells lower compared with that in the multi-step treatment” value in series [1] (setting [3]) is “about 1 log10 cells/ml”; in series [1] (setting [4]), approximately 4 log10 cells/ml. Besides, the “Ct value in live cells larger than in multi-step treatment (EMA 10/10 μg/ml)” value is on record as “about 2.2” in series [1] (setting [3]), approximately 1.7 in series [1] (setting [4]) and “about 5.0” in series [2] (live cells). In addition, the “detection limit of live cells lower than that in the multi-step treatment” value in series [2] was “about 2 log10 cells/ml”.
